Share of PSTVd loop 15 variants by leaf site

Region: loop 15 of PSTVd (intermediate strain), upper and lower strand joined, each 5' to 3', the first 7 letters being the upper strand, closing pairs included. Wild type: GGAAACCGCUACUAC. Varied positions (N): GGAAACCGNNNNNNC.

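A pool of all variants was put on leaves of three Nicotiana benthamiana plants. Progeny were sequenced from the inoculated region (day 5), the margin of the inoculated leaf (day 10) and systemic leaves (day 12).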

Numbers give reads per thousand; 0 = not seen among the reads, higher = more abundant. Each site shows the three plants. "Pool" is the share in the plasmid pool used as inoculum, on the same scale. The inoculated region was read from the minus strand, the other sites from the plus strand. For reference, wild type rose from 33.9 per thousand in the pool to 202, 200, 159 (inoculated region), 724, 746, 710 (leaf margin) and 856, 883, 880 (systemic leaves).

- GGAAACCGCUACAAC (pool 0.384) -> inoculated region 0.541 / 0.418 / 0.476; leaf margin 0.259 / 0.223 / 0.361; systemic leaves 0.177 / 0.212 / 0.0684
- GGAAACCGAGGGAUC (pool 0.128) -> inoculated region 0.115 / 0.177 / 0.0762; leaf margin 0.0162 / 0.0223 / 0; systemic leaves 0 / 0 / 0
- GGAAACCGCUAUUUC (pool 0.240) -> inoculated region 0.328 / 0.321 / 0.438; leaf margin 0.0485 / 0.111 / 0.120; systemic leaves 0.0322 / 0.0756 / 0.114
- GGAAACCGUGUUAGC (pool 0.256) -> inoculated region 0.0983 / 0.0803 / 0.0571; leaf margin 0.0162 / 0.0223 / 0.0200; systemic leaves 0 / 0 / 0
- GGAAACCGCCCUAUC (pool 0.336) -> inoculated region 0.213 / 0.129 / 0.171; leaf margin 0 / 0 / 0.0200; systemic leaves 0.0161 / 0 / 0
- GGAAACCGGCCGACC (pool 0.240) -> inoculated region 0.0819 / 0.0803 / 0.0381; leaf margin 0 / 0 / 0; systemic leaves 0 / 0 / 0
- GGAAACCGCAAUGGC (pool 0.160) -> inoculated region 0.246 / 0.305 / 0.362; leaf margin 0.0162 / 0.0223 / 0; systemic leaves 0 / 0 / 0
- GGAAACCGACAAUCC (pool 0.208) -> inoculated region 0.131 / 0.161 / 0.0952; leaf margin 0.0162 / 0.0223 / 0.0200; systemic leaves 0 / 0 / 0
- GGAAACCGACCUUCC (pool 0.288) -> inoculated region 0.0491 / 0.161 / 0.133; leaf margin 0 / 0 / 0.0200; systemic leaves 0.0161 / 0 / 0
- GGAAACCGGACUAGC (pool 0.160) -> inoculated region 0.164 / 0.145 / 0.0762; leaf margin 0 / 0 / 0; systemic leaves 0 / 0 / 0
- GGAAACCGAUGAAUC (pool 0.208) -> inoculated region 0.0655 / 0.112 / 0.0762; leaf margin 0 / 0.0668 / 0.0200; systemic leaves 0 / 0 / 0
- GGAAACCGGAUGGCC (pool 0.112) -> inoculated region 0.0655 / 0.0482 / 0.0571; leaf margin 0 / 0 / 0.0200; systemic leaves 0 / 0 / 0
- GGAAACCGAACACGC (pool 0.176) -> inoculated region 0.147 / 0.209 / 0.114; leaf margin 0 / 0 / 0.0200; systemic leaves 0 / 0 / 0
- GGAAACCGAAUCUAC (pool 0.224) -> inoculated region 0.0491 / 0.0803 / 0.0571; leaf margin 0 / 0 / 0; systemic leaves 0 / 0 / 0
- GGAAACCGGAAUCAC (pool 0.208) -> inoculated region 0.131 / 0.0964 / 0.0571; leaf margin 0 / 0 / 0; systemic leaves 0.0161 / 0 / 0
- GGAAACCGGGUAUUC (pool 0.336) -> inoculated region 0.0491 / 0.0321 / 0.0762; leaf margin 0 / 0 / 0; systemic leaves 0 / 0 / 0
- GGAAACCGGGAGAAC (pool 0.224) -> inoculated region 0.246 / 0.337 / 0.362; leaf margin 0.113 / 0.134 / 0.240; systemic leaves 0 / 0.0151 / 0.0684
- GGAAACCGAAGGUAC (pool 0.336) -> inoculated region 0.278 / 0.273 / 0.305; leaf margin 0.0970 / 0.0891 / 0.120; systemic leaves 0 / 0.0605 / 0.182
- GGAAACCGUAUGAAC (pool 0.240) -> inoculated region 0.147 / 0.257 / 0.0571; leaf margin 0 / 0 / 0; systemic leaves 0 / 0.0151 / 0
- GGAAACCGUAUACUC (pool 0.144) -> inoculated region 0.131 / 0.0643 / 0.114; leaf margin 0.0323 / 0 / 0.0200; systemic leaves 0.0161 / 0 / 0
- GGAAACCGGUGCUUC (pool 0.160) -> inoculated region 0.0819 / 0.0803 / 0.0571; leaf margin 0.0162 / 0 / 0; systemic leaves 0 / 0 / 0
- GGAAACCGUAAGAUC (pool 0.224) -> inoculated region 0.491 / 0.321 / 0.267; leaf margin 0.0970 / 0.156 / 0.100; systemic leaves 0.0483 / 0.0454 / 0.0912
- GGAAACCGGGCUUCC (pool 0.240) -> inoculated region 0.131 / 0.0964 / 0.0952; leaf margin 0.0162 / 0 / 0.0200; systemic leaves 0 / 0 / 0
- GGAAACCGUUCAGUC (pool 0.176) -> inoculated region 0.0655 / 0.177 / 0.0190; leaf margin 0.0162 / 0 / 0.0401; systemic leaves 0 / 0 / 0
- GGAAACCGUCCCGCC (pool 0.176) -> inoculated region 0.0983 / 0.0482 / 0.114; leaf margin 0 / 0 / 0; systemic leaves 0 / 0 / 0
- GGAAACCGUGGUAUC (pool 0.192) -> inoculated region 0.131 / 0.145 / 0.0381; leaf margin 0 / 0.0445 / 0; systemic leaves 0 / 0 / 0
- GGAAACCGAGUCCUC (pool 0.304) -> inoculated region 0.0983 / 0.0964 / 0.0952; leaf margin 0 / 0 / 0; systemic leaves 0 / 0 / 0
- GGAAACCGCAUGUUC (pool 0.192) -> inoculated region 0.328 / 0.289 / 0.305; leaf margin 0.162 / 0.0891 / 0.160; systemic leaves 0.0161 / 0 / 0
- GGAAACCGGUGGUAC (pool 0.240) -> inoculated region 0.311 / 0.209 / 0.400; leaf margin 0.162 / 0.0668 / 0.140; systemic leaves 0.0644 / 0.0303 / 0.0228
- GGAAACCGGGUCCUC (pool 0.304) -> inoculated region 0.115 / 0.145 / 0.152; leaf margin 0.0162 / 0.0445 / 0; systemic leaves 0.0161 / 0 / 0
- GGAAACCGUCGGCCC (pool 0.208) -> inoculated region 0.0655 / 0.0482 / 0.171; leaf margin 0.0162 / 0 / 0.0200; systemic leaves 0 / 0 / 0.0228
- GGAAACCGGCCCUAC (pool 0.128) -> inoculated region 0.0328 / 0.0321 / 0.0762; leaf margin 0 / 0.0223 / 0.0401; systemic leaves 0.0161 / 0 / 0
- GGAAACCGCACCCCC (pool 0.304) -> inoculated region 0.115 / 0.0643 / 0.114; leaf margin 0 / 0.0223 / 0.0401; systemic leaves 0.0161 / 0 / 0

The opening 4 entries, copied out:

- GGAAACCGCUACAAC (pool 0.384) = inoculated region 0.541 / 0.418 / 0.476; leaf margin 0.259 / 0.223 / 0.361; systemic leaves 0.177 / 0.212 / 0.0684
- GGAAACCGAGGGAUC (pool 0.128) = inoculated region 0.115 / 0.177 / 0.0762; leaf margin 0.0162 / 0.0223 / 0; systemic leaves 0 / 0 / 0
- GGAAACCGCUAUUUC (pool 0.240) = inoculated region 0.328 / 0.321 / 0.438; leaf margin 0.0485 / 0.111 / 0.120; systemic leaves 0.0322 / 0.0756 / 0.114
- GGAAACCGUGUUAGC (pool 0.256) = inoculated region 0.0983 / 0.0803 / 0.0571; leaf margin 0.0162 / 0.0223 / 0.0200; systemic leaves 0 / 0 / 0

Sequences that differ at fixed positions probably stem from PCR or sequencing errors, and defective variants can be carried along by functional ones. Samples held 43,870 to 66,106 reads, so the smallest values rest on one or two reads.

From the data files of Wu et al. 2024, doi:10.1371/journal.ppat.1012142.